Measurements reported in PubChem BioAssay AID624099 (ICCB-Longwood, 2012).
In all, the deposit lists about 21,000 reagents; shown is an unselected part. In the full data, 497 (2.4%) were called active. 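Higher z means weaker E2 silencing; only reporter increases were scored, and knock-downs that hurt cell survival may mask genuine repressor factors.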 Reagents against one gene are numbered here.

Test: 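Host factors E2 relies on to silence an HPV18 LCR reporter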 (primary screen)
System: human C33A cervical carcinoma cells (HPV-negative) stably expressing BPV1 E2 and an HPV18 LCR luciferase reporter
Reagent: siRNA pool against human genes, 40 nM
Duration: 72 h
Measured: 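Per-well luciferase luminescence, z-scored on each plate against the plate mean and SD with control wells left out, then averaged across three replicate plates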
Direction: mean z-score and z-score: higher = stronger reporter signal, weaker E2 silencing
Active means: 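Hit if mean z-score reaches 2 and two or more of three replicate z-scores also reach 2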

target | reagent no. | mean z-score | z-score, replicate A | z-score, replicate B | z-score, replicate C | outcome
EFCAB3 (EF-hand calcium binding domain 3) | 1 | -0.12 | 0.4 | -0.38 | -0.37 | inactive
PGPEP1L (pyroglutamyl-peptidase I like) | 1 | -1.02 | -1.3 | -1.49 | -0.27 | inactive
ENTPD5 (ectonucleoside triphosphate diphosphohydrolase 5) | 1 | 0.04 | 0.46 | -0.16 | -0.19 | inactive
H19 (H19 imprinted maternally expressed transcript) | 1 | 0 | 0 | -0.28 | 0.27 | inactive
RNF181 (ring finger protein 181) | 1 | -0.12 | 0.23 | -0.72 | 0.14 | inactive
PLPP3 (phospholipid phosphatase 3) | 1 | 1.47 | 1.66 | 1.31 | 1.44 | inactive
CABLES1 (Cdk5 and Abl enzyme substrate 1) | 1 | -1.89 | -1.75 | -2.27 | -1.65 | inactive
RGPD5 (RANBP2 like and GRIP domain containing 5) | 1 | 0.02 | -0.33 | 0.04 | 0.34 | inactive
ACTR2P2 (ACTR2 pseudogene 2) | 1 | 0.61 | 0.4 | 0.31 | 1.11 | inactive
PPP1R8 (protein phosphatase 1 regulatory subunit 8) | 1 | 1.15 | 0.87 | 1.36 | 1.23 | inactive
LOC389077 (retired record) | 1 | -0.55 | 0.02 | -1.32 | -0.36 | inactive
PSG11 (pregnancy specific beta-1-glycoprotein 11) | 1 | 0.87 | 0.79 | 0.78 | 1.05 | inactive
KLF13 (KLF transcription factor 13) | 1 | -0.74 | -0.91 | -0.74 | -0.57 | inactive
RELCH | 1 | -0.73 | -0.97 | -0.27 | -0.97 | inactive
PBXIP1 (PBX homeobox interacting protein 1) | 1 | 1.3 | 2 | 1.12 | 0.79 | inactive
PSMC3 (proteasome 26S subunit, ATPase 3) | 1 | -0.7 | -0.81 | -0.78 | -0.51 | inactive
INO80E (INO80 complex subunit E) | 1 | -1.59 | -1.45 | -1.44 | -1.87 | inactive
YPEL4 (yippee like 4) | 1 | 0.6 | 1.3 | -0.1 | – | inactive
LOC392487 (retired record) | 1 | 0.36 | 0.2 | 0.44 | 0.44 | inactive
OR7A17 (olfactory receptor family 7 subfamily A member 17) | 1 | -0.31 | -0.18 | -0.55 | -0.2 | inactive
PLEKHM3 (pleckstrin homology domain containing M3) | 1 | -0.95 | -0.91 | -1.12 | -0.83 | inactive
LOC388338 (retired record) | 1 | 0.05 | -0.14 | 0.38 | -0.1 | inactive
ZNF805 (zinc finger protein 805) | 1 | -1.05 | -1 | -1.53 | -0.62 | inactive
SEPTIN6 (septin 6) | 1 | -1.08 | -0.94 | -1.17 | -1.12 | inactive
RPL23AP8 (ribosomal protein L23a pseudogene 8) | 1 | -3.02 | -3.26 | -2.83 | -2.97 | inactive
ESRRG (estrogen related receptor gamma) | 1 | -0.06 | -0.07 | -0.08 | -0.02 | inactive
MATR3 (matrin 3) | 1 | 0.83 | 0.78 | 0.94 | 0.76 | inactive

Taken from above.
EFCAB3 (EF-hand calcium binding domain 3), z-score, replicate A: 0.4
Under “mean z-score”, LOC388338 (retired record) shows 0.05
Result of RGPD5 (RANBP2 like and GRIP domain containing 5) under “z-score, replicate C”: 0.34
Value for PGPEP1L (pyroglutamyl-peptidase I like) under “z-score, replicate C”: -0.27

Additional records:
target | reagent no. | mean z-score | z-score, replicate A | z-score, replicate B | z-score, replicate C | outcome
ALG13 (ALG13 UDP-N-acetylglucosaminyltransferase subunit) | 1 | 0.14 | -0.02 | 0.72 | -0.29 | inactive
ALG13 (ALG13 UDP-N-acetylglucosaminyltransferase subunit) | 2 | 1.17 | 0.86 | 1.38 | 1.26 | inactive
LNP1 (leukemia NUP98 fusion partner 1) | 1 | -0.74 | -0.83 | -0.68 | -0.69 | inactive
NDUFS4 (NADH:ubiquinone oxidoreductase subunit S4) | 1 | -0.24 | -0.43 | -0.7 | 0.41 | inactive
COX15 (cytochrome c oxidase assembly factor COX15) | 1 | -0.67 | -0.69 | -0.69 | -0.62 | inactive
MRGPRX3 (MAS related GPR family member X3) | 1 | -0.32 | 0.04 | -0.59 | -0.42 | inactive
RNF5 (ring finger protein 5) | 1 | 0.94 | 0.69 | 1.1 | 1.05 | inactive
RFK (riboflavin kinase) | 1 | 0.83 | 0.87 | 0.8 | 0.81 | inactive
SAXO2 (stabilizer of axonemal microtubules 2) | 1 | 0.66 | 0.74 | 0.2 | 1.04 | inactive
CHD1L (chromodomain helicase DNA binding protein 1 like) | 1 | 1.04 | 0.9 | 1.36 | 0.84 | inactive
KIFAP3 (kinesin associated protein 3) | 1 | -0.16 | 0.15 | -0.42 | -0.2 | inactive
DCBLD2 (discoidin, CUB and LCCL domain containing 2) | 1 | -0.79 | -0.95 | -0.93 | -0.49 | inactive
ZKSCAN2 (zinc finger with KRAB and SCAN domains 2) | 1 | -0.05 | -0.05 | 0.16 | -0.26 | inactive
C6orf132 (chromosome 6 open reading frame 132) | 1 | 2.03 | 1.58 | 2.04 | 2.46 | active
MOB3A (MOB kinase activator 3A) | 1 | -0.52 | -0.35 | -0.9 | -0.31 | inactive
LOC284898 | 1 | 0.53 | 0.35 | 0.33 | 0.92 | inactive
RHOG (ras homolog family member G) | 1 | -0.65 | -0.48 | -0.8 | -0.65 | inactive
H1-10-AS1 (H1-10 antisense RNA 1) | 1 | -0.9 | -0.16 | -1.57 | -0.98 | inactive
CYLD (CYLD lysine 63 deubiquitinase) | 1 | -0.33 | -0.06 | -0.42 | -0.51 | inactive
NMNAT1 (nicotinamide nucleotide adenylyltransferase 1) | 1 | -0.77 | -0.68 | -0.92 | -0.71 | inactive
ATP2C2 (ATPase secretory pathway Ca2+ transporting 2) | 1 | 1.88 | 1.83 | 2.18 | 1.64 | inactive
ERG28 (ergosterol biosynthesis 28 homolog) | 1 | 2.79 | 2.79 | 2.8 | 2.78 | active
PAMR1 | 1 | 0.48 | 0.14 | 0.5 | 0.81 | inactive
LSM3 | 1 | -0.99 | -1.24 | -1.23 | -0.51 | inactive
LOC401255 (retired record) | 1 | -2.51 | -2.61 | -2.64 | -2.3 | inactive
LOC388069 (retired record) | 1 | 0.21 | 0.35 | 0.11 | 0.17 | inactive
ZNF266 (zinc finger protein 266) | 1 | 0.03 | -0.12 | 0.07 | 0.13 | inactive
CYBB (cytochrome b-245 beta chain) | 1 | -0.08 | 0.06 | -0.02 | -0.29 | inactive
LOC391025 (retired record) | 1 | -0.41 | -0.09 | -0.65 | -0.49 | inactive
PRMT8 (protein arginine methyltransferase 8) | 1 | 0.54 | 0.44 | 0.54 | 0.65 | inactive
